Test results reported in publication PMC11098746 (2024).

B1: ADP157 (protein)
chain: MGVPRPQPWALGLLLFLLPGSLGAESHLSLLYHLTAVSSPAPGTPAFWVSGWLGPQQYLSYNSLRGEAEPCGAWVWENQVSWYWEKETTDLRIKEKLFLEAFKALGGKGPYTLQGLLGCELGPDNTSVPTAKFALNGEEFMNFDLKQGTWGGDWPEALAISQRWQQQDKAANKELTFLLFSCPHRLREHLERGRGNLEWKEPPSMRLKARPSSPGFSVLTCSAFSFYPPELQLRFLRNGLAAGTGQGDFGPNSDGSFHASSSLTVKSGDEHHYCCIVQHAGLAQPLRVELESPAKSS
modifications: bait human Fc-tagged dimer
B2: ADP369 (protein)
chain: MGAAAGRSPHLGPAPARRPQRSLLLLQLLLLVAAPGSTQAQAAPFPELCSYTWEAVDTKNNVLYKINICGSVDIVQCGPSSAVCMHDLKTRTYHSVGDSVLRSATRSLLEFNTTVSCDQQGTNHRVQSSIAFLCGKTLGTPEFVTATECVHYFEWRTTAACKKDIFKANKEVPCYVFDEELRKHDLNPLIKLSGAYLVDDSDPDTSLFINVCRDIDTLRDPGSQLRACPPGTAACLVRGHQAFDVGQPRDGLKLVRKDRLVLSYVREEAGKLDFCDGHSPAVTITFVCPSERREGTIPKLTAKSNCRYEIEWITEYACHRDYLESKTCSLSGEQQDVSIDLTPLAQSGGSSYISDGKEYLFYLNVCGETEIQFCNKKQAAVCQVKKSDTSQVKAAGRYHNQTLRYSDGDLTLIYFGGDECSSGFQRMSVINFECNKTAGNDGKGTPVFTGEVDCTYFFTWDTEYACVKEKEDLLCGATDGKKRYDLSALVRHAEPEQNWEAVDGSQTETEKKHFFINICHRVLQEGKARGCPEDAAVCAVDKNGSKNLGKFISSPMKEKGNIQLSYSDGDDCGHGKKIKTNITLVCKPGDLESAPVLRTSGEGGCFYEFEWHTAAACVLSKTEGENCTVFDSQAGFSFDLSPLTKKNGAYKVETKKYDFYINVCGPVSVSPCQPDSGACQVAKSDEKTWNLGLSNAKLSYYDGMIQLNYRGGTPYNNERHTPRATLITFLCDRDAGVGFPEYQEEDNSTYNFRWYTSYACPEEPLECVVTDPSTLEQYDLSSLAKSEGGLGGNWYAMDNSGEHVTWRKYYINVCRPLNPVPGCNRYASACQMKYEKDQGSFTEVVSISNLGMAKTGPVVEDSGSLLLEYVNGSACTTSDGRQTTYTTRIHLVCSRGRLNSHPIFSLNWECVVSFLWNTEAACPIQTTTDTDQACSIRDPNSGFVFNLNPLNSSQGYNVSGIGKIFMFNVCGTMPVCGTILGKPASGCEAETQTEELKNWKPARPVGIEKSLQLSTEGFITLTYKGPLSAKGTADAFIVRFVCNDDVYSGPLKFLHQDIDSGQGIRNTYFEFETALACVPSPVDCQVTDLAGNEYDLTGLSTVRKPWTAVDTSVDGRKRTFYLSVCNPLPYIPGCQGSAVGSCLVSEGNSWNLGVVQMSPQAAANGSLSIMYVNGDKCGNQRFSTRITFECAQISGSPAFQLQDGCEYVFIWRTVEACPVVRVEGDNCEVKDPRHGNLYDLKPLGLNDTIVSAGEYTYYFRVCGKLSSDVCPTSDKSKVVSSCQEKREPQGFHKVAGLLTQKLTYENGLLKMNFTGGDTCHKVYQRSTAIFFYCDRGTQRPVFLKETSDCSYLFEWRTQYACPPFD
modifications: bait human Fc-tagged dimer
B3: ADP134 (protein)
chain: MVSSVSWGILLLAGLCCLVPVSLAEDPQGDAAQKTDTSHHDQDHPTFNKITPNLAEFAFSLYRQLAHQSNSTNIFFSPVSIATAFAMLSLGTKADTHDEILEGLNFNLTEIPEAQIHEGFQELLRTLNQPDSQLQLTTGNGLFLSEGLKLVDKFLEDVKKLYHSEAFTVNFGDTEEAKKQINDYVEKGTQGKIVDLVKELDRDTVFALVNYIFFKGKWERPFEVKDTEEEDFHVDQVTTVKVPMMKRLGMFNIQHCKKLSSWVLLMKYLGNATAIFFLPDEGKLQHLENELTHDIITKFLENEDRRSASLHLPKLSITGTYDLKSVLGQLGITKVFSNGADLSGVTEEAPLKLSKAVHKAVLTIDEKGTEAAGAMFLEAIPMSIPPEVKFNKPFVFLMIEQNTKSPLFMGKVVNPTQK
modifications: bait human Fc-tagged dimer
B4: ADP122 (protein)
chain: MVCFRLFPVPGSGLVLVCLVLGAVRSYALELNLTDSENATCLYAKWQMNFTVRYETTNKTYKTVTISDHGTVTYNGSICGDDQNGPKIAVQFGPGFSWIANFTKAASTYSIDSVSFSYNTGDNTTFPDAEDKGILTVDELLAIRIPLNDLFRCNSLSTLEKNDVVQHYWDVLVQAFVQNGTVSTNEFLCDKDKTSTVAPTIHTTVPSPTTTPTPKEKPEAGTYSVNNGNDTCLLATMGLQLNITQDKVASVININPNTTHSTGSCRSHTALLRLNSSTIKYLDFVFAVKNENRFYLKEVNISMYLVNGSVFSIANNNLSYWDAPLGSSYMCNKEQTVSVSGAFQINTFDLRVQPFNVTQGKYSTAQDCSADDDNFLVP
modifications: bait human Fc-tagged dimer
B5: ADP113 (protein)
chain: MVRLPLQCVLWGCLLTAVHPEPPTACREKQYLINSQCCSLCQPGQKLVSDCTEFTETECLPCGESEFLDTWNRETHCHQHKYCDPNLGLRVQQKGTSETDTICTCEEGWHCTSEACESCVLHRSCSPGFGVKQIATGVSDTICEPCPVGFFSNVSSAFEKCHPWTSCETKDLVVQQAGTNKTDVVCGPQDRL
modifications: bait human Fc-tagged dimer

Biological target: Circumsporozoite protein (CSP) (Plasmodium falciparum (isolate 3D7))
Assay: AVEXIS screen signal:noise (double-corrected)

Binder	binding score
B1	0.924
B2	0.692
B3	1.6
B4	1.66
B5	0.909
